This series concerns C[C@@H](N)C(=O)O. Put plainly: purified protein.

As usually defined, the Km is the concentration of substrate that gives half-maximal velocity. “AlrBax (Dal1, alanine racemase from Bacillus anthracis Ames) (Bacillus anthracis)”: the Km is 2800 µM.

The values above are taken from article PMC2743695 (BMC Structural Biology, 2009).
